Reference: PubChem BioAssay AID624099 (ICCB-Longwood, 2012)

Purpose: 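Human genes that papillomavirus E2 requires to repress the HPV18 LCR promoter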 (primary screen)
Cell system: human C33A cervical carcinoma cells (HPV-negative) stably expressing BPV1 E2 and an HPV18 LCR luciferase reporter
Reagent: siRNA pool against human genes, 40 nM
Timing: 72 h
Detection: 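Per-well luciferase luminescence, z-scored on each plate against the plate mean and SD with control wells left out, then averaged across three replicate plates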
Reading the numbers: mean z-score and z-score: higher = stronger reporter signal, weaker E2 silencing
Call rule: 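Hit if mean z-score reaches 2 and two or more of three replicate z-scores also reach 2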
In all, the deposit lists about 21,000 reagents; below is a part drawn at random. 497 of all reagents (2.4%) count as active. 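Higher z means weaker E2 silencing; only reporter increases were scored, and knock-downs that hurt cell survival may mask genuine repressor factors.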 Unmarked entries are inactive.

no.	gene	PubChem SID	mean z-score	z-score, replicate A	z-score, replicate B	z-score, replicate C
1	ELOC	SID134315041	-0.45	-0.21	-0.61	-0.52
2	MAP1S	SID134320855	0.23	1.12	0.57	-1.02
3	NTRK2	SID56478538	-0.34	-0.64	-0.29	-0.08
4	DDX6	SID134311758	-0.37	-0.16	-0.59	-0.34
5	NCAPH	SID134317103	0.74	0.58	0.78	0.86
6	FOXO3	SID134309805	-1.23	-0.94	-1.53	-1.22
7	ENOPH1	SID134317988	0.16	-0.42	0.06	0.84
8	CCNL2	SID134318790	-0.39	-0.67	-0.14	-0.37
9	JOSD1	SID134321593	0.6	0.36	0.75	0.7
10	BHLHE41	SID134314692	0.72	0.92	0.71	0.54
11	GIMAP2	SID134317272	-1.47	-1.73	-1.31	-1.38
12	PCDHA13	SID134317481	-0.28	-0.13	-0.37	-0.33
13	TMSB10	SID134321705	-0.73	-0.45	-1.04	-0.7
14	CYP26A1	SID134314258	-0.09	-0.15	-0.03	-0.08
15	CLP1	SID134323653	0.14	0.49	0.11	-0.19
16	MYCT1	SID134326751	2.26 (active)	1.93	2.62	2.24
17	LOC390488 (retired record)	SID134328522	0.09	-0.05	0.1	0.22
18	CFAP126	SID134325373	0.3	0.42	-0.02	0.49
19	TFE3	SID134314118	0.24	0.11	0.04	0.55
20	FGF1	SID134315530	-0.5	-0.47	-0.49	-0.54
21	DUX5	SID134323662	0.67	0.6	0.74	0.69
22	CHCHD2P10	SID134328023	1.27	1.16	1.12	1.53
23	TRMT5	SID134325231	1.1	1.08	1.49	0.74
24	TAF1C	SID134316438	-0.08	-0.06	-0.14	-0.05
25	FGD3	SID134314943	-0.11	-0.22	-0.02	-0.09
26	RNASE7	SID134322072	-0.63	-0.48	-0.46	-0.97
27	FLT4	SID56478518	-0.52	-0.43	-0.58	-0.54
28	KRT3	SID134317152	-0.03	-0.08	-0.09	0.08
29	FOXL1	SID134313827	-0.72	-0.45	-0.64	-1.07
30	TBL2	SID134316752	1.21	1.46	1.18	0.99
31	SLC26A9	SID134312543	0.24	0.22	0.3	0.2
32	NUAK1	SID56478923	-0.11	-0.03	-0.21	-0.09
33	SPDYE3	SID134329866	-1.43	-1.33	-1.76	-1.2
34	LMBR1	SID134320147	-0.11	-0.34	0	0.02
35	MND1	SID134318880	0.41	0.12	0.65	0.45
36	LINC00308	SID134320400	1.76	1.91	1.72	1.65
37	ZRSR2	SID134311915	-0.62	-0.56	-0.55	-0.74
38	ADAMDEC1	SID134311189	0.65	0.86	0.56	0.53
39	S100A10	SID134316084	-0.59	-0.38	-0.86	-0.53
40	H1-3	SID134316344	-0.16	-0.29	-0.3	0.12
41	RUFY2	SID134312139	1.16	0.86	1.11	1.51
42	TXNDC9P1	SID134325958	0.6	0.61	0.21	0.97
43	RND2	SID134314448	0.67	0.58	0.78	0.66
44	RABL2A	SID134317838	1.74	1.51	1.72	2
45	B4GALNT2	SID134320066	0.37	-0.11	0.05	1.16
46	VXN	SID134319785	0.43	0.81	-0.09	0.55
47	CEP57L1P1	SID134326548	-0.01	-0.25	0.22	-0.01
48	ALB	SID134315354	0.83	1.42	0.56	0.51
49	LINC01102	SID134327141	-0.09	0.55	-0.37	-0.44
50	ECHDC2	SID134314665	-0.73	-0.92	-0.68	-0.59
51	NOC3L	SID134322077	-0.29	0.05	-0.55	-0.36
52	RPL18	SID134315500	-1.41	-1.36	-1.35	-1.53
53	FAM230C	SID134328469	1.8	1.81	1.63	1.98
54	FOXD3	SID134313979	0.68	0.48	0.76	0.79
55	ZNF16	SID134317026	-1.35	-1.56	-1.09	-1.41
56	CMYA5	SID134320369	0.15	0	-0.02	0.48
57	CELA2B	SID134311289	0.67	0.3	0.9	0.79

Reformatted: results already given
gene,PubChem SID,mean z-score,"z-score, replicate A","z-score, replicate B","z-score, replicate C"
DDX6,SID134311758,-0.37,-0.16,-0.59,-0.34
NCAPH,SID134317103,0.74,0.58,0.78,0.86
FOXO3,SID134309805,-1.23,-0.94,-1.53,-1.22
ENOPH1,SID134317988,0.16,-0.42,0.06,0.84
CCNL2,SID134318790,-0.39,-0.67,-0.14,-0.37
